Measurements as given in publication PMC4281115.
Construct, isoform or probe ends are uncertain for at least one entry. At least one verdict rests on a figure or table, not on a statement of the authors.

Amino acid sequences for entries named in this document (tags omitted). Residues count along the entry.
UniProt Q9WMX2, 1193-1657: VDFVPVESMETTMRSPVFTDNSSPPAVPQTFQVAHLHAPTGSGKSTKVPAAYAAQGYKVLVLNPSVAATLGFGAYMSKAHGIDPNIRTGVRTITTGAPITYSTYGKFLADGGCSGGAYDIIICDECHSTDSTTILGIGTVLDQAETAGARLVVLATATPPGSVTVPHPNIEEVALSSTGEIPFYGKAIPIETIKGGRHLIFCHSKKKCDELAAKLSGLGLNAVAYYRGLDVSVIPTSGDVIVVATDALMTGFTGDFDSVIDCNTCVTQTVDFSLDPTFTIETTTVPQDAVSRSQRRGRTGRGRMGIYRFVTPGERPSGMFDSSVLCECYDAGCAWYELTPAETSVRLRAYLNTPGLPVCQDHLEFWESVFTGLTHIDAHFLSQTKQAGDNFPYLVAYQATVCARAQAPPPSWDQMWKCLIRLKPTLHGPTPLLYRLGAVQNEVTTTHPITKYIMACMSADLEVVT
UniProt Q9WMX2, 1027-1657: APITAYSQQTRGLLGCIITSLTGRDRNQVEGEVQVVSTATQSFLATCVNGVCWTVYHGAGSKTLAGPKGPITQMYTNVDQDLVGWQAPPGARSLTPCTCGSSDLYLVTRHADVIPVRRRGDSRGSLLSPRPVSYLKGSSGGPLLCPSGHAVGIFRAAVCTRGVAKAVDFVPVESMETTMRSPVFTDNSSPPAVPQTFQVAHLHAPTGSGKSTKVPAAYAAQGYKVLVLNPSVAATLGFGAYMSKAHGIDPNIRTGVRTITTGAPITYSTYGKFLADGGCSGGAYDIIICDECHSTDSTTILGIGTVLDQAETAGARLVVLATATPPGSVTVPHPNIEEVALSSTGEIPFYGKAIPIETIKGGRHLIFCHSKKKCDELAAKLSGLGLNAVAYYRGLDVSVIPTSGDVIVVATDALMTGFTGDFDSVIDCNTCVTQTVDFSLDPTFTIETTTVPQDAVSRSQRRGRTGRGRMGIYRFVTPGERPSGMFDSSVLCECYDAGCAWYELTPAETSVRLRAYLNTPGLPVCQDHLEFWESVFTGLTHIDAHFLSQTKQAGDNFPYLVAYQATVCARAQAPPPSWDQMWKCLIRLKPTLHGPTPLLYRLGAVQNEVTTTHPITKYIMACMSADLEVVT

Assays:
[1] = molecular target: NS3hel (NS3 helicase domain) (UniProt Q9WMX2); assay: Trp fluorescence quenching; conditions: pH 6.4, 2 mM MgCl2, quenching greater than at pH 7.2; 25 mM MOPS-NaOH pH 6.4 or 7.2, 2 mM MgCl2, 25 C; 25 nM 5-FAM-dT20 with 0-10 uM NS3hel or 0-5 uM NS3FL, 10 min (anisotropy); 1 uM protein with 0-1 uM ssDNA; recombinant protein; protein details: N-terminal 6xHis-TEV, cleaved; single-stranded DNA
[2] = molecular target: NS3FL (full-length NS3) (UniProt Q9WMX2); assay: Trp fluorescence quenching; conditions: 25 mM MOPS-NaOH pH 6.4 or 7.2, 2 mM MgCl2, 25 C, 25 nM 5-FAM-dT20 with 0-10 uM NS3hel or 0-5 uM NS3FL, 10 min (anisotropy), 1 uM protein with 0-1 uM ssDNA, recombinant protein, protein details: C-terminal 6xHis, single-stranded DNA

Measured: binding result

TTTTTTTTTTTTTTTTTTTT [oligo(dT)20 unlabeled]
binds: [1] | [2]; pH 6.4, 2 mM MgCl2, less quenching than NS3hel, no pH difference | [2]; pH 7.2, 2 mM MgCl2, no significant difference from pH 6.4
